The record followed here is patent publication US20180172709A1.

The target of this assay is recombinant Syrian golden hamster proteinase K-sensitive prion protein (residues 23-231) (Syrian golden hamster) (UniProt Q60468). The experiment in a line: cell-based or functional assay.

For “PrP-res in brain homogenate from a human variant CJD patient (from UniProt P04156 23-230)”, the rHaPrP-res^(vCJD)-positive QUIC reactions, 1 fg PrP-res seed, 8 h, 50° C. (of 6 reactions) was determined as 1; the rHaPrP-res^(vCJD)-positive QUIC reactions, 1 fg PrP-res seed, 18 h, 50° C. (of 6 reactions) was 2; the rHaPrP-res^(vCJD)-positive QUIC reactions, 100 fg PrP-res seed, 8 h, 50° C. (of 6 reactions) came to 5; the rHaPrP-res^(vCJD)-positive QUIC reactions, 100 fg PrP-res seed, 18 h, 50° C. (of 6 reactions) was 6.
